Measured values reported in US20240109955A1.

How the values were obtained:
Test in all cases: cell-based or functional assay
[1] = biological target: SARS-CoV-2 Omicron BA.4/5 spike protein (S) on lentiviral pseudovirions (SARS-CoV-2) (UniProt P0DTC2)
[2] = biological target: SARS-CoV-2 spike (S) protein, Delta variant AY.1 (SARS-CoV-2) (UniProt P0DTC2)
[3] = biological target: SARS-CoV-2 spike (S) protein, Kappa variant (B.1.617.1) (SARS-CoV-2) (UniProt P0DTC2)
[4] = biological target: SARS-CoV-2 D614G spike protein mutant (D614G) (SARS-CoV-2) (UniProt P0DTC2)
[5] = biological target: SARS-CoV-2 spike protein, Delta variant (B.1.617.2) (SARS-CoV-2) (UniProt P0DTC2)
[6] = biological target: SARS-CoV-2 spike protein, Omicron sublineage BA.4/5 (SARS-CoV-2) (UniProt P0DTC2)
[7] = biological target: SARS-CoV-2 spike (S) protein, Omicron sublineage BA.2.75.2 (R346T, F486S) (SARS-CoV-2) (UniProt P0DTC2)

A19-61 mAb (antibody)
IC50, pseudovirus neutralization (BA.4/5) [1]: 0.128 nM
IC80, pseudovirus neutralization (BA.4/5) [1]: 0.322 nM

A19-61.1 (antibody)
pseudovirus neutralization IC50 (nM (inferred)) [2]: 0.0557
pseudovirus neutralization IC80 (nM (inferred)) [2]: 0.121
pseudovirus neutralization IC50 (nM (inferred)) [3]: 0.0815
pseudovirus neutralization IC80 (nM (inferred)) [3]: 0.173

A23-58 mAb (antibody)
IC50, pseudovirus neutralization (BA.4/5) [1]: > 66.7 nM
IC80, pseudovirus neutralization (BA.4/5) [1]: > 66.7 nM

A23-58H/B1-182L mAb (antibody)
IC50 (pseudovirus neutralization) [4]: 0.0132 nM
IC80 (pseudovirus neutralization) [4]: 0.0337 nM
IC50, pseudovirus neutralization (BA.4/5) [1]: > 66.7 nM
IC80, pseudovirus neutralization (BA.4/5) [1]: > 66.7 nM

B1-182 mAb (antibody)
IC50, pseudovirus neutralization (BA.4/5) [1]: > 66.7 nM
IC80, pseudovirus neutralization (BA.4/5) [1]: > 66.7 nM

B1-182.1 (antibody)
pseudovirus neutralization IC50 (nM (inferred)) [2]: 0.008
pseudovirus neutralization IC80 (nM (inferred)) [2]: 0.0192
pseudovirus neutralization IC50 (nM (inferred)) [3]: 0.0261
pseudovirus neutralization IC80 (nM (inferred)) [3]: 0.086
IC50 (pseudovirus neutralization) [5]: 1.57 nM
IC80 (pseudovirus neutralization) [5]: 7.25 nM
IC50 (pseudovirus neutralization) [6]: > 10000 nM
IC80 (pseudovirus neutralization) [6]: > 10000 nM

MX409 (A23-58H/B1-182L Tetravalent) (antibody)
IC50 (pseudovirus neutralization) [4]: 0.0051 nM
IC80 (pseudovirus neutralization) [4]: 0.0113 nM

MX466 (A23-58H/B1-182L Cl-CH1 Tetravalent) (antibody)
IC50, pseudovirus neutralization (BA.4/5) [1]: > 66.7 nM
IC80, pseudovirus neutralization (BA.4/5) [1]: > 66.7 nM

S2E12 (antibody)
IC50 (pseudovirus neutralization) [5]: 1.2 nM
IC80 (pseudovirus neutralization) [5]: 2.6 nM
IC50 (pseudovirus neutralization) [6]: 713 nM
IC80 (pseudovirus neutralization) [6]: 3970 nM

bebtelovimab (LY1404) (antibody)
IC50 (pseudovirus neutralization) [7]: 4.98 nM
IC80 (pseudovirus neutralization) [7]: 20.2 nM
